Pooled drug test results. Numbers come from NIAID ChemDB, via PubChem.

All rows: tests on isolated targets

An empty or dashed field is not shown. a–b is a range or a potency band. ICn: concentration for n% inhibition. Fold resistance: result on the changed form divided by that on wild type. Inhibition is in % at the dose shown (toxicity tests: loss of growth or viability). Neighbouring rows are from separate reports.

smiles,read-out,tested at,strain or isolate,target,species,changes,read by,result
NNC(=O)c1ccncc1,inhibition,1000 µM,H37Rv,Citrate synthase,Mycobacterium tuberculosis,,,0%
O=C(NCc1cccc(F)c1)c1cc2ccccc2cc1O,IC50,,,HCMV DNA polymerase,Human cytomegalovirus,,,>100 µM
C/C(=N\NC(=S)NNC(=S)Nc1cccc(Br)c1)c1ccccn1,IC50,,,Ribonucleotide reductase,Herpes simplex virus 1,,,>5 µM
COC(=O)[C@@H]1CCCCN1C(=O)[C@@H]1CSCN1C(=O)[C@@H](O)[C@H](Cc1ccccc1)NC(=O)[C@H](CS(C)(=O)=O)NC(=O)COc1cccc2ccccc12,inhibition,0.05 µM,,Protease,HIV-1,,,9.2%
Cc1cc2c([nH]c3ccccc32)c2c1OC(C)(C)C=C2,IC50,,,Early antigen (EA) induced,Epstein-Barr virus,,antigen,6 µg/mL
Cc1cccc2nc(N)nc(N)c12,IC50,,,DHFR,Pneumocystis carinii,,,1.5 µM
O=C(Cn1ncc2c(=O)oc3ccccc3c21)Nc1ccc2c(c1)CC=N2,IC50,,,Inosine monophosphate dehydrogenase,Cryptosporidium parvum,,absorbance,>5 µM
Cc1[nH]nc2c1C(c1cc(Cl)cc(-c3ccc(C(=O)OCc4ccccc4)cc3)c1)(C1CCC1)C(C#N)=C(N)O2,Ki,,,Serine hydroxymethyltransferase,Plasmodium falciparum,,absorbance,1.96 µM
Nc1nc(N)c2c(n1)Cc1c-2ccc(Cl)c1Cl,IC50,,TYPE 2,Dihydrofolate reductase,Cryptosporidium parvum,,,>10 µM
Cc1cn([C@H]2CC[C@@H](CO)O2)c(=O)[nH]c1=O,IC50,,Kanno-Kohmura (TK-),Thymidylate synthetase,Varicella zoster virus,,,>100 µM
CN(C)c1cccc2c(S(=O)(=O)Nc3ccc(NC(=O)C(C)(C)CO)cc3)cccc12,IC50,,M89/M104-WILD TYPE,Terminase,Mouse cytomegalovirus,,,0.03 µM
C/C(=N\NC(=S)NNC(=S)N(C)C)c1ccccn1,IC50,,,Ribonucleotide reductase,Herpes simplex virus 1,,,>5 µM
O=C(Nc1ccc(Cl)cc1)c1cc2cccc(O)c2cc1O,IC50,,,HCMV DNA polymerase,Human cytomegalovirus,,,>100 µM
Clc1cccc(N2CCN(c3cncc(-c4ccoc4)n3)CC2)c1,inhibition,1 µM,,UL97 kinase,Cytomegalovirus,,,<50%
C/C(=N\NC(=S)NNC(=S)Nc1ccccc1Cl)c1ccccn1,IC50,,,Ribonucleotide reductase,Herpes simplex virus 1,,,>5 µM
Nc1ccn([C@H]2CC[C@@H](CO)O2)c(=O)n1,IC50,,Kanno-Kohmura (TK-),Thymidylate synthetase,Varicella zoster virus,,,>100 µM
Nc1nc(=O)c2ncn(CCOCP(=O)(O)O)c2c(=O)[nH]1,IC50,,,NTPase/helicase,West Nile virus,,helicase activity,500 µM
Nc1nc(N)c2c3c(cnc2n1)CCCC3,IC50,,,DHFR,Pneumocystis carinii,,,>30 µM
Cc1[nH]nc2c1C(c1cc(C#N)cc(-c3ccc(C(=O)N(C)C)s3)c1)(C(C)C)C(C#N)=C(N)O2,IC50,,,Serine hydroxymethyltransferase,Plasmodium falciparum,,absorbance,0.27 µM
Cc1cn([C@@H]2O[C@H](COP(=O)(O)OP(=O)(O)OP(=O)(O)O)[C@@H](O)[C@@H]2F)c(=O)nc1N,Ki,,,DNA polymerase,Epstein-Barr virus,,,0.9 µM
CC(C)(C)NC(=O)[C@@H]1CCCN1C(=O)[C@@H](O)[C@H](CC1CCCCC1)NC(=O)[C@H](CC(N)=O)NC(=O)OCC1c2ccccc2-c2ccccc21,inhibition,0.05 µM,,Protease,HIV-1,,,46.5%
COC(=O)CCc1cccc(-c2cc(Cl)cc(C3(C4CCC4)C(C#N)=C(N)Oc4n[nH]c(C)c43)c2)c1,Ki,,,Serine hydroxymethyltransferase,Plasmodium falciparum,,absorbance,0.174 µM
CC(C)C(CO)NC(=O)[C@@H]1CSCN1C(=O)[C@@H](O)[C@H](Cc1ccccc1)NC(=O)[C@H](CS(C)(=O)=O)NC(=O)COc1cccc2ccccc12,inhibition,0.05 µM,,Protease,HIV-1,,,80.7%
O=C(c1cc2ccccc2cc1O)N1CCN(Cc2ccccc2)CC1,IC50,,,HCMV DNA polymerase,Human cytomegalovirus,,,>100 µM
CO[C@H](C(=O)NO)[C@@H](CC(C)C)C(=O)N[C@H](C(=O)OC1CCCC1)c1ccccc1,IC50,,,PfM1AAP,Plasmodium falciparum,,fluorescence,0.075 µM
O=C(O)c1ccc(N2C(=O)C(=Cc3ccc(-c4cc(Cl)cc(Cl)c4)o3)SC2=S)cc1,IC50,,,NS5 polymerase,Bovine viral diarrhea virus,,,≤1 µM
Cc1ccccc1CC1CCc2nc(N)nc(N)c2C1,IC50,,TYPE 1,Dihydrofolate reductase,Cryptosporidium parvum,,,0.15 µM
COc1c(Cl)cccc1NC(=S)NNC(=S)N/N=C(\C)c1ccccn1,IC50,,,Ribonucleotide reductase,Herpes simplex virus 1,,,>5 µM
C#C[C@H]1O[C@@H](n2cc(C)c(=O)[nH]c2=O)C[C@@H]1O,IC50,,KOS,Thymidine kinase,Herpes simplex virus 1,,,3 µM
Nc1nc(N)c2c(ccc3ccc(Cl)cc32)n1,IC50,,TYPE 2,Dihydrofolate reductase,Cryptosporidium parvum,,,0.023 µM
O=C(Cn1ncc2c(=O)oc3ccccc3c21)Nc1cccc(Oc2ccc(Cl)cc2)c1,IC50,,,Inosine monophosphate dehydrogenase,Cryptosporidium parvum,,absorbance,0.02 µM
COc1cc(NCc2c(Br)sc3nc(N)nc(N)c23)cc(OC)c1OC,IC50,,TYPE 1,Dihydrofolate reductase,Cryptosporidium parvum,,,>10 µM
CC1(C)N=C(N)N=C(N)N1c1ccc(-c2ccc3c(Cl)cc(Cl)cc3c2)cc1,IC50,,,DHFR,Toxoplasma gondii,,,0.41 µM
Clc1cccc(N2CCN(c3cncc(-c4ccccc4Oc4ccccc4)n3)CC2)c1,inhibition,10 µM,,UL97 kinase,Cytomegalovirus,,,>15%
CC(C)=CCN1Cc2cccc3[nH]c(=S)n(c23)C[C@@H]1C,fold resistance,,,Reverse transcriptase,HIV,RT-K263V,nucleotide incorporation,0.87
CC(=O)N(CC(C)C)c1cn2ccn(Cc3cccc(Cl)c3)c(=O)c2c(O)c1=O,IC50,,,Integrase,HIV-1,,ELISA,0.01–0.1 µM
CC(C)Cn1c(Sc2ccc(C#N)c([N+](=O)[O-])c2)nnc1-c1ccccc1Cl,IC50,,,Thioredoxin reductase,Plasmodium falciparum,,,5.4 µM
CS(=O)(=O)CCCN1C(=O)c2ccccc2C(CC(=O)c2ccccc2)C1=O,IC50,,Serotype 14,Protease,Rhinovirus,,,44.6 µM
Nc1nc(N)c2c(Cl)c(Br)ccc2n1,IC50,,,DHFR,Pneumocystis carinii,,,0.14 µM
O=c1ccn2c(CCO)cn(Cc3ccc(Cl)c(Cl)c3)c(=O)c2c1O,IC50,,,Integrase,HIV-1,,ELISA,0.01–0.1 µM
CCOc1ccc(-c2cncc(N3CCN(c4ccc(F)cc4F)CC3)n2)cc1,IC50,,,UL97 kinase,Cytomegalovirus,,,<100 µM
O=C(c1cc2ccccc2cc1O)N1CCN(c2cccc(Cl)c2)CC1,IC50,,,HCMV DNA polymerase,Human cytomegalovirus,,,30 µM
CS(=O)(=O)CCCN1C(=O)c2ccccc2C(C(=O)c2ccccc2)C1=O,IC50,,Serotype 2,Protease,Rhinovirus,,,31.3 µM
CC(C)(C)C1CCc2nc(N)nc(N)c2C1,IC50,,TYPE 1,Dihydrofolate reductase,Cryptosporidium parvum,,,0.21 µM
O=c1c(-c2ccccc2)cn2c(CC3CCCCC3)cn(Cc3cccc(Cl)c3)c(=O)c2c1O,IC50,,,Integrase,HIV-1,,ELISA,0.1–1 µM
Nc1nc(N)c2c(CNc3cc(Cl)c(-n4cccc4)c(Cl)c3)csc2n1,IC50,,TYPE 1,Dihydrofolate reductase,Cryptosporidium parvum,,,>10 µM
CC1(c2ccc(OCC#N)c(Cl)c2Cl)C(=O)c2ccccc2C1=O,IC50,,,Geranylgeranyl-protein transferase I,Candida albicans,,,0.13 µM
Cc1[nH]nc2c1C(c1cc(Cl)cc(C#N)c1)(C1CCC1)C(C#N)=C(N)O2,IC50,,,Serine hydroxymethyltransferase,Plasmodium falciparum,,absorbance,0.35 µM
Nc1nc(=O)n([C@@H]2O[C@H](COP(=O)(O)OP(=O)(O)OP(=O)(O)O)[C@@H](O)[C@@H]2F)cc1I,Ki,,,DNA polymerase,Epstein-Barr virus,,,0.95 µM
O=C(Nc1ccc(Br)cc1)c1ccc2ccccc2c1O,IC50,,,HCMV DNA polymerase,Human cytomegalovirus,,,23 µM
CN(C)CCCOc1ccc(C(=O)c2ccc(Cl)cc2)cc1,inhibition,10 µM,,Oxidosqualene cyclase,Pneumocystis carinii,,,4%
CSCCCN1C(=O)Cc2ccccc2C1=O,IC50,,Serotype 14,Protease,Rhinovirus,,,>200 µM
CSc1ccc(-c2cncc(N3CCN(c4cccc(C)c4)C(C)C3)n2)cc1,IC50,,,UL97 kinase,Cytomegalovirus,,,<100 µM
Cc1cc(-c2ccc(C=C3SC(=S)NC3=O)o2)oc1C,IC50,,,NS5 polymerase,Bovine viral diarrhea virus,,,≤1 µM
CC1(C)O[C@H]2O[C@@H]3C(C4N[C@@H](c5ccccc5)[C@H](c5ccccc5)N4)=NO[C@@H]3[C@H]2O1,IC50,,,Beta-galactosidase,Aspergillus niger,,,>1000 µM
CC1=C(CC/C(C)=C/CC/C(C)=C/CCC2=CCOC2=O)C(C)(C)CCC1=O,IC50,,,p56lck tyrosine kinase,,,ELISA,<500 µM
O=C(O)C1=CCC(=CN2C(=O)C(=Cc3ccc(-c4cc(C(F)(F)F)ccc4Cl)o3)SC2=S)C=C1,IC50,,,NS5 polymerase,Bovine viral diarrhea virus,,,≤1 µM
Nc1ccn(C[C@@H](CO)OCP(=O)(O)O)c(=O)n1,IC50,,KANNO (TK+),Thymidylate synthetase,Varicella zoster virus,,,>100 µM
O=C(Nc1ccc(Br)cc1)c1cc2ccccc2cc1O,IC50,,,HCMV DNA polymerase,Human cytomegalovirus,,,22.7 µM
CC(C)(C)OC(=O)N[C@@H](CC(N)=O)C(=O)N[C@@H](Cc1ccccc1)[C@H](O)C(=O)NCC1CCCCC1,inhibition,1000 µM,,Protease,HIV-1,,,47.1%
COc1cc(Cc2sc3nc(N)nc(N)c3c2C)cc(OC)c1OC,IC50,,TYPE 2,Dihydrofolate reductase,Cryptosporidium parvum,,,2.3 µM
OCC1=NO[C@H]2[C@H](O)C(O)O[C@@H]12,IC50,,,Beta-galactosidase,Aspergillus niger,,,>1000 µM
Nc1nc2c(ncn2[C@H]2CO[C@@H](COP(=O)(O)OP(=O)(O)OP(=O)(O)O)O2)c(=O)[nH]1,fold resistance,,,Reverse transcriptase,HIV,RT-Q151M,radiometric,5.3
COc1ccccc1N1CCN(c2cncc(-c3ccccc3C(C)=O)n2)CC1,IC50,,,UL97 kinase,Cytomegalovirus,,,<100 µM
CCOc1c(Cl)cc2nc(S(N)(=O)=O)sc2c1Cl,IC50,,,Geranylgeranyl-protein transferase I,Candida albicans,,,0.09 µM
COc1ccc(-c2ccc(C=C3SC(=S)N(c4ccc(C(=O)O)cc4)C3=O)o2)nn1,IC50,,,NS5 polymerase,Bovine viral diarrhea virus,,,≤1 µM
O=C(c1ccc([N+](=O)[O-])o1)N1CCN(c2nc3c(F)cc(F)cc3s2)CC1,IC50,,,Thioredoxin reductase,Plasmodium vivax,,,<4 µM
COc1cc(NCc2cnc3nc(N)nc(N)c3n2)cc(OC)c1OC,IC50,,TYPE 1,Dihydrofolate reductase,Cryptosporidium parvum,,,1.3 µM
O=c1[nH][nH]c(=O)c2c1ncn2[C@@H]1C[C@H](O)[C@@H](CO)O1,IC50,,,NTPase/helicase,West Nile virus,,,0.185 µM
CCOC(=O)CCCN1C(=O)c2ccccc2C(C(C)=O)C1=O,IC50,,Serotype 2,Protease,Rhinovirus,,,>200 µM
C/C(=N\NC(=S)NNC(=S)Nc1ccc([N+](=O)[O-])cc1)c1ccccn1,IC50,,,Ribonucleotide reductase,Herpes simplex virus 1,,,>5 µM
Cc1c(Cc2ccc(Cl)c(Cl)c2)sc2nc(N)nc(N)c12,IC50,,TYPE 2,Dihydrofolate reductase,Cryptosporidium parvum,,,>10 µM
Cc1cn([C@@H]2O[C@H](CO)[C@@H](O)[C@@H]2O)c(=O)[nH]c1=O,IC50,,KANNO (TK+),Thymidylate synthetase,Varicella zoster virus,,,56 µM
O=C(c1ccc([N+](=O)[O-])o1)N1CCN(c2nc3c(Cl)cccc3s2)CC1,IC50,,,Thioredoxin reductase,Plasmodium berghei,,,5 µM
CC(C)C(=O)N[C@H]1C([C@H](C)[C@@H](O)CO)OC(C(=O)O)=C[C@@H]1NS(=O)(=O)C(Cl)Cl,IC50,,TYPE 3,Neuraminidase,Parainfluenza virus,,,4.3 µM
Cc1cc(=O)c(O)c2n1CCN(Cc1ccc(Cl)c(Cl)c1)C2=O,IC50,,,Integrase,HIV-1,,ELISA,0.01–0.1 µM
Nc1nc(N)c2nc(Cc3cccc(C(F)(F)F)c3)c(Cc3cccc(C(F)(F)F)c3)nc2n1,IC50,,,DHFR,Pneumocystis carinii,,,26 µM
CC(=O)Nc1ccc(C(=O)O)cc1,inhibition,1000 µM,RH,DHPS,Toxoplasma gondii,,,92.8%
CN(C)CCOc1ccccc1/C=N\N1CCN(C2Cc3ccccc3Sc3ccc(Cl)cc32)CC1,IC50,,,Geranylgeranyl-protein transferase I,Candida albicans,,,0.17 µM

A second listing of 6 rows from above:

smiles,read-out,tested at,strain or isolate,target,species,changes,read by,result
O=c1ccn2c(CCO)cn(Cc3ccc(Cl)c(Cl)c3)c(=O)c2c1O,IC50,,,Integrase,HIV-1,,ELISA,0.01–0.1 µM
Cc1cc2c([nH]c3ccccc32)c2c1OC(C)(C)C=C2,IC50,,,Early antigen (EA) induced,Epstein-Barr virus,,antigen,6 µg/mL
O=C(Nc1ccc(Br)cc1)c1cc2ccccc2cc1O,IC50,,,HCMV DNA polymerase,Human cytomegalovirus,,,22.7 µM
CN(C)CCCOc1ccc(C(=O)c2ccc(Cl)cc2)cc1,inhibition,10 µM,,Oxidosqualene cyclase,Pneumocystis carinii,,,4%
COC(=O)CCc1cccc(-c2cc(Cl)cc(C3(C4CCC4)C(C#N)=C(N)Oc4n[nH]c(C)c43)c2)c1,Ki,,,Serine hydroxymethyltransferase,Plasmodium falciparum,,absorbance,0.174 µM
O=C(O)C1=CCC(=CN2C(=O)C(=Cc3ccc(-c4cc(C(F)(F)F)ccc4Cl)o3)SC2=S)C=C1,IC50,,,NS5 polymerase,Bovine viral diarrhea virus,,,≤1 µM